Anti-infective test results gathered from many reports (values: NIAID ChemDB through PubChem).

Common to all: growth or infection tests; organism: Hepatitis C virus; cells: Huh7; method: replicon; measure: EC50

ECn: concentration that inhibits the pathogen or its effect by n%. Conditions beyond the fields shown may differ between rows. a–b is a range or a potency band.

| compound | result |
|---|---|
| O=C(O)/C=C/c1ccc(NCC2(NC(=O)c3ccc4c(C5CCCCC5)c5n(c4c3)CC(C(=O)N3CCC(N4CCCC4)CC3)Cc3ccccc3-5)CCCC2)cc1 | 0.01–1 µM |
| Cc1ccccc1C(=O)N/N=C/c1ccccc1OS(=O)(=O)c1ccc(C(F)(F)F)cc1 | <5 µM |
| O=C(O)/C=C/c1ccc(NCC2(NC(=O)c3ccc4c(C5CCCCC5)c5n(c4c3)CC(C(=O)N3CCCC(O)C3)Cc3ccccc3-5)CCCC2)cc1 | 0.01–1 µM |
| CNC(=O)c1c(-c2ccc(F)cc2)oc2cc(N3CCOCC3)c(OC3CCCC3)cc12 | <1 µM |
| C[C@@H](NC(=O)OCc1ccccc1)C(=O)Nc1ccc(C2SC(=Nc3ccc4c(c3)OCCO4)N(Cc3ccco3)C2=O)cc1 | <0.1 µM |
| COC(=O)c1ccc2c(C3CCCCC3)c3n(c2c1)CC(C#N)=Cc1ccccc1-3 | 1–10 µM |
| CNC(=O)c1c(-c2ccc(F)cc2)oc2cc(N(Cc3ccc(C(=O)OC)cc3)S(C)(=O)=O)c(OC(C)C)cc12 | <1 µM |
| O=C(Nc1ccc(C2SC(=Nc3ccc(F)cc3Cl)N(Cc3ccco3)C2=O)cc1)[C@H]1CCCN1C(=O)OCc1ccccc1 | 1–5 µM |
| CNC(=O)c1c(-c2ccc(F)cc2)oc2cc(C3CCCN3S(C)(=O)=O)c(OC)cc12 | <1 µM |
| COC(=O)/C=C/c1ccc(NC(=O)C2(NC(=O)c3ccc4c(C5CCCCC5)c5n(c4c3)C[C@@H](O)[C@@H](O)c3ncccc3-5)CCCC2)cc1 | 0.01–1 µM |
| O=C(Cc1ccc2c(c1)OCO2)N[C@H]1C[C@@H]1c1ccccc1OS(=O)(=O)c1ccc(C(F)(F)F)cc1 | >50 µM |
| CNC(=O)c1c(-c2ccc(F)cc2)oc2cc(N3CCCCC3)c(OC(C)C)cc12 | <1 µM |
| O=C(Nc1ccc(C2SC(=Nc3cccc(F)c3)N(Cc3ccccn3)C2=O)cc1)[C@H]1CCCN1C(=O)Cc1ccccc1 | <0.1 µM |
| CNC(=O)c1c(-c2ccccc2)oc2ccc(C)cc12 | <10 µM |
| O=C(Cc1ccccc1)N/N=C/c1ccccc1OS(=O)(=O)c1cccc(F)c1 | >50 µM |
| C[C@@H](NC(=O)OCc1ccccc1)C(=O)Nc1ccc(C2SC(=Nc3cccc(F)c3)N(Cc3cccnc3)C2=O)cc1 | <0.1 µM |
| O=C(Cc1ccccc1)N/N=C/c1ccccc1OS(=O)(=O)c1ccc(F)cc1 | 5–50 µM |
| CCc1cc2c(C(=O)NC)c(-c3ccc(F)cc3)oc2cc1N(C)S(C)(=O)=O | <1 µM |
| NC(=O)c1ccc2c(C3CCCCC3)c3n(c2c1)CCCc1ncccc1-3 | 1–10 µM |
| CNC(=O)c1c(-c2ccc(F)cc2)oc2cc(N(C3CCC3)S(C)(=O)=O)c(OC(C)C)cc12 | <1 µM |
| CCN(CC)S(=O)(=O)NC(=O)c1ccc2c(C3CCCCC3)c3n(c2c1)CC(C(=O)N1CCOCC1)=Cc1ccccc1-3 | 0.01–1 µM |
| CNC(=O)c1c(-c2ccc(OC)cc2)oc2ccc(OC)cc12 | <10 µM |
| CN(c1ccccc1/C=N/NC(=O)Cc1cccc(Br)c1)S(=O)(=O)c1ccc(C(F)(F)F)cc1 | <5 µM |
| CN(C)S(=O)(=O)NC(=O)c1ccc2c(C3CCCCC3)c3n(c2c1)CC(=O)Nc1ccccc1-3 | 0.01–1 µM |

The last 3 rows once more:

compound	result
CNC(=O)c1c(-c2ccc(OC)cc2)oc2ccc(OC)cc12	<10 µM
CN(c1ccccc1/C=N/NC(=O)Cc1cccc(Br)c1)S(=O)(=O)c1ccc(C(F)(F)F)cc1	<5 µM
CN(C)S(=O)(=O)NC(=O)c1ccc2c(C3CCCCC3)c3n(c2c1)CC(=O)Nc1ccccc1-3	0.01–1 µM